Test results taken from patent US20140120063A1, “NUTRITIONAL AND METABOLIC APPROACHES TO PREVENT EMERGENCE OF ENTERIC PATHOGENS” (The Board of Trustees of the Leland Stanford Junior …, priority 2012, published 2014).

Assay: Free sialic acid in ceca of conventional mice after antibiotic treatment (DMB-HPLC)
Format: in vivo

Which “free sialic acid level in ceca” value (1 day post-streptomycin (20 mg gavage), untreated mice 17 pmoles/mg) does the source give for `[H]/N=C(/N)N[C@H]1[C@H](O)[C@@H](O)[C@H](O[C@@H]2O[C@@H](C)[C@](O)(C=O)[C@H]2O[C@@H]2O[C@@H](CO)[C@H](O)[C@@H](O)[C@@H]2NC)[C@@H](N/C(N)=N\[H])[C@@H]1O` [streptomycin] here?
The value was 725 pmol/mg.

And the “pool of free sialic acids in ceca” value (day 3 post-treatment)?
Its value is “decreased”.
